The results in this text go back to PMC3842230 (Biochemistry, 2013).

For this assay, the target named is Cys-less NorM (Vc-NorM) (Vibrio cholerae serotype O1, UniProt Q9KRU4, C192A/C326T/C365V). The conditions noted are these: read-out: Apparent KD, CW-EPR, 7 μM Ruboxyl, 0-80 μM NorM.

Like-named read-outs stand apart in the source and are kept apart here.

For the substance Ruboxyl, the Kd was 1.5 µM (GF buffer with 20 mM NaCl) and 1.8 µM (Na+-free GF buffer).
